Results on one substance are retold here after PMC10764958, “TRIM28-mediated nucleocapsid protein SUMOylation enhances SARS-CoV-2 virulence” (2024).

In the assay the target is non-SUMOylated SARS2-NP K65R, purified from HEK293F cells, SARS-CoV-2, P0DTC9 1-419.

On to “AF488-labeled SARS2-NP (ligand of the MST of Fig. 2g) K65R; Alexa Fluor 488 maleimide on a C-terminal cysteine”, for which the result is recorded as “binds”.
